Anti-infective test results gathered from many reports (values: NIAID ChemDB through PubChem).

Common to all: growth or infection tests; species: Candida albicans; read-out: inhibition

Inhibition is in % at the dose shown (toxicity tests: loss of growth or viability).

structure | read by | strain or isolate | dose | setting | result
COc1ccc(CC(=O)c2ccc(OC)cc2)cc1 | - | 28 strains | 256 µg/mL | - | 0%
CCOc1ccc(SCC#CCN2CCCCC2)cc1 | - | CNCM 1180-79 | 78 µg/mL | - | 50%
COc1ccc(C(O)C(Cc2ccc(Cl)cc2Cl)c2ccc(Cl)cc2)cc1 | - | 28 strains | 256 µg/mL | - | 0%
Cc1c(C(=O)N(CCO)CCO)cc(-c2ccc([N+](=O)[O-])cc2)n1-c1ccc(Cl)cc1Cl | - | 20 strains | 200 µg/mL | - | 0%
O=C1C(Sc2ccccc2)=C(Sc2ccccc2)C(=O)c2ccccc21 | - | - | 0.2 µg/mL | - | 42.6%
OC[C@H]1CO[C@](Cn2ccnc2)(c2ccc(-c3ccccc3)cc2)O1 | - | 44 strains | 256 µg/mL | - | 97.5%
Cc1c(C(=O)N2CCN(C)CC2)cc(-c2ccc([N+](=O)[O-])cc2)n1-c1ccccc1Cl | - | 20 strains | 200 µg/mL | - | 0%
Cc1ccc(-n2cc(C(C)(C)O)nn2)cc1C | broth dilution | URM 4385 | 2048 µg/mL | - | 0%
COc1ccc(C(O)Cc2ccc(Cl)cc2)cc1 | - | 28 strains | 256 µg/mL | - | 100%
O=C1C(Nc2ccc(Br)cc2)=C(S(=O)c2ccccc2)C(=O)c2ccccc21 | - | - | 0.2 µg/mL | - | 41.4%
COc1cccc(C=[NH+]CC(=O)[N-]CC(=O)[O-])c1[O-].O.O.O.[K+] | - | - | 200 µg/mL | - | 88.8%
COc1ccc(C(=O)C(Cc2ccc(Cl)cc2Cl)c2ccc(OC)cc2)cc1 | - | 28 strains | 256 µg/mL | - | 0%
C=CC(C/C(=N/OS(=O)(=O)O)SC1OC(CO)C(O)C(O)C1O)OC(=O)CC1C(=O)Nc2ccccc21 | - | ATCC 10231 | 400 µg/mL | - | 77.3%
CCCCOc1ccc(SCC#CCN2CCCCC2)cc1 | - | CNCM 1180-79 | 78 µg/mL | - | 50%
CC[C@H](C)[C@H](NC(=O)[C@H](Cc1c[nH]c2ccccc12)NC(=O)[C@H](Cc1ccc(O)cc1)NC(=O)[C@@H](N)CO)C(=O)N[C@@H](CCC(=O)O)C(=O)O | colony count | NBRC 1392 | 5 µM | - | 17.5%
CS(=O)(=O)OC[C@H]1CO[C@](Cn2ccnc2)(c2ccc(-c3ccccc3)cc2)O1 | - | 44 strains | 256 µg/mL | - | 42.1%
C[C@H]1[C@H](O)[C@@H](C)/C=C/C=C/C=C/C=C/C=C/C=C/C=C/[C@H](O[C@@H]2O[C@H](C)[C@@H](O)[C@H](N)[C@@H]2O)C[C@@H]2O[C@](O)(C[C@@H](O)C[C@@H](O)CC[C@H](O)[C@@H](O)C[C@@H](O)CC(=O)O[C@H]1C)C[C@H](O)[C@H]2C(=O)O | broth dilution | sap9/10 | 1 µg/mL | - | 100%
CC(C)(O)c1cn(-c2ccc([N+](=O)[O-])cc2)nn1 | broth dilution | URM 4387 | 2048 µg/mL | - | 0%
CCCOc1ccc(SCC#CI)cc1 | - | CNCM 1180-79 | 78 µg/mL | - | 100%
O=C(O)CC(=O)OCC1OC(Oc2c[nH]c3ccccc23)C(O)C(=O)C1O | - | ATCC 10231 | 400 µg/mL | - | 56.3%
CC(=O)N1CCN(c2ccc(OC[C@H]3CO[C@](Cn4ccnc4)(c4ccc(Cl)cc4Cl)O3)cc2)CC1 | - | - | 5 µg/mL | - | 100%
CCC(C(=O)c1ccc(OC)cc1)c1ccc(OC)cc1 | - | 28 strains | 256 µg/mL | - | 0%
Clc1ccc(COC(Cn2ccnc2)c2ccc(Cl)cc2Cl)c(Cl)c1 | - | 439 isolates | 4 µg/mL | 48 h | 56%
CC(N=Cc1ccccc1O)C(=O)O | - | - | 200 µg/mL | - | 7%
Cc1c(C(=O)N(CCO)CCO)cc(-c2ccc([N+](=O)[O-])cc2)n1Cc1ccc(Cl)cc1 | - | 20 strains | 200 µg/mL | - | 0%
C[C@H]1[C@H](O)[C@@H](C)/C=C/C=C/C=C/C=C/C=C/C=C/C=C/[C@H](O[C@@H]2O[C@H](C)[C@@H](O)[C@H](N)[C@@H]2O)C[C@@H]2O[C@](O)(C[C@@H](O)C[C@@H](O)CC[C@H](O)[C@@H](O)C[C@@H](O)CC(=O)O[C@H]1C)C[C@H](O)[C@H]2C(=O)O | broth dilution | ATCC 90028 | 1 µg/mL | - | 100%
NCCCC[C@H](NC(=O)[C@H](CCCN=C(N)N)NC(=O)[C@H](CCCN=C(N)N)NC(=O)[C@H](CCCCN)NC(=O)[C@H](CCCCN)NC(=O)[C@@H](N)CCCCN)C(=O)N[C@@H](CCCN=C(N)N)C(=O)O | - | ATCC 10231 | 12.5 µM | - | 0%
COC(=O)[C@H]1[C@@H]2C[C@@H](O[C@@H]3O[C@H](C)[C@@H](O)[C@H](N)[C@@H]3O)/C=C/C=C/C=C/C=C/C=C/C=C/C=C/[C@H](C)[C@@H](O)[C@H](C)[C@H](C)OC(=O)C[C@H](O)C[C@H](O)[C@@H](O)CC[C@H](O)C[C@H](O)C[C@](O)(C[C@@H]1O)O2 | - | - | 5 µg/mL | - | 100%
CS(=O)(=O)c1ccc(NC(=O)Oc2c(Cl)cc(Cl)cc2Cl)cc1 | - | - | 50 µg/mL | - | inactive
C[C@@H](c1ncncc1F)[C@](O)(Cn1cncn1)c1ccc(F)cc1F | - | - | 5 µg/mL | - | 100%
c1ccc(-c2ccc(C(c3cccc4ccccc34)n3ccnc3)cc2)cc1 | - | 23 strains | 256 µg/mL | - | 15%
CS(=O)(=O)OCC1COC(Cn2ccnc2)(c2ccc(-c3ccccc3)cc2)O1 | - | 44 strains | 256 µg/mL | - | 97.5%
O=C1C(Sc2ccc(Br)cc2)=C(Sc2ccc(Br)cc2)C(=O)c2ccccc21 | - | - | 0.2 µg/mL | - | 43.2%
CCCOc1ccc(SCC#CCN2CCCCC2)cc1 | - | CNCM 1180-79 | 78 µg/mL | - | 50%
COc1ccc(C(C(Cc2ccc(Cl)cc2Cl)c2ccc(Cl)cc2)n2cnnc2)cc1 | - | 28 strains | 256 µg/mL | - | 0%
CCCOc1ccc(SCC#CCCN2CCN(C)CC2)cc1 | - | CNCM 1180-79 | 78 µg/mL | - | 50%
O=S(c1ccccc1)c1c(Sc2ccccc2)c(O)c2ccccc2c1O | - | - | 0.2 µg/mL | - | 41.2%
CC(C)(C)OC(=O)N1CCC(n2cc(C#N)nn2)CC1 | agar | NCIM3471 | 200 µg/mL | - | 0%
O=C1C(Nc2ccccc2)=C(S(=O)c2ccccc2)C(=O)c2ccccc21 | - | - | 0.2 µg/mL | - | 41.4%
C=CC(C/C(=N/OS(=O)(=O)O)SC1OC(CO)C(O)C(O)C1O)OC(=O)CC1(O)C(=O)Nc2ccccc21 | - | ATCC 10231 | 400 µg/mL | - | 79.1%
CC(=O)OCC1C=C(c2ccc(Br)cc2)C(=O)O1 | - | ATCC 90028 | 10 µg/mL | - | 100%

3 of the rows above, restated:

structure | read by | strain or isolate | dose | setting | result
CS(=O)(=O)OCC1COC(Cn2ccnc2)(c2ccc(-c3ccccc3)cc2)O1 | - | 44 strains | 256 µg/mL | - | 97.5%
COc1ccc(CC(=O)c2ccc(OC)cc2)cc1 | - | 28 strains | 256 µg/mL | - | 0%
CC(C)(O)c1cn(-c2ccc([N+](=O)[O-])cc2)nn1 | broth dilution | URM 4387 | 2048 µg/mL | - | 0%

Rows are shuffled and stem from different studies. "inactive" is the filed call at that dose; no cut-off is given. An empty or dashed field is not shown.